# Sequence variants of PSTVd loop 15 after infection

Data from the supplement of Wu et al. 2024, doi:10.1371/journal.ppat.1012142.

PSTVd intermediate strain, loop 15: wild type GGAAACCGCUACUAC, pool pattern GGAAACCGNNNNNNC; upper and lower strand joined, each 5' to 3', the first 7 letters being the upper strand, closing pairs included.

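Three N. benthamiana plants were inoculated with the whole mutant pool. Samples came from the inoculated region at 5 days, the leaf margin at 10 and upper systemic leaves at 12.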

Values are reads per thousand in the sample; higher means more abundant, 0 means not found.
Each value is the mean of three plants.
"Pool" is the share in the plasmid pool used as inoculum, on the same scale.
The inoculated region was read from the minus strand, the other sites from the plus strand.
For reference, wild type rose from 33.9 per thousand in the pool to 202, 200, 159 (inoculated region), 724, 746, 710 (leaf margin) and 856, 883, 880 (systemic leaves).
Samples held 43,870 to 66,106 reads, so the smallest values rest on one or two reads.
Sequences that differ at fixed positions probably stem from PCR or sequencing errors, and defective variants can be carried along by functional ones.

sequence,pool,inoculated region,leaf margin,systemic leaves
GGAAACCGCCCCUUC,0.176,0.315,0.140,0.00537
GGAAACCGCUUCUCC,0.144,0.118,0.0121,0
GGAAACCGGAUCCCC,0.240,0.0940,0,0
GGAAACCGUCCGUCC,0.192,0.361,0.0948,0.0594
GGAAACCGCUCGUUC,0.224,0.272,0.141,0.0537
GGAAACCGUUUAAUC,0.288,0.0785,0.0275,0
GGAAACCGCGCACAC,0.224,0.135,0.00539,0
GGAAACCGGUUUUGC,0.240,0.0823,0,0.00537
GGAAACCGGACCCUC,0.272,0.0894,0.0148,0
GGAAACCGUGUUCUC,0.304,0.0514,0.0195,0
GGAAACCGUGGCCGC,0.320,0.111,0.00668,0
GGAAACCGCUUAUGC,0.256,0.210,0.0141,0.00537
GGAAACCGGUACCAC,0.288,0.257,0.140,0.108
GGAAACCGUCUAUUC,0.352,0.277,0.0705,0.00537
GGAAACCGGCCCAGC,0.192,0.0524,0.00668,0
GGAAACCGAUAUUCC,0.176,0.286,0.0998,0.0382
GGAAACCGAUUACGC,0.224,0.116,0.0200,0
GGAAACCGGAGUCUC,0.256,0.110,0,0
GGAAACCGUGGCACC,0.240,0.0723,0.0134,0
GGAAACCGACAGCUC,0.112,0.159,0.0215,0
GGAAACCGCUGCAAC,0.192,0.101,0,0
GGAAACCGACAAUUC,0.272,0.229,0.0700,0.0455
GGAAACCGGACAUAC,0.240,0.0515,0.0134,0
GGAAACCGGUUGGGC,0.192,0.115,0.00539,0
GGAAACCGUUACUAC,0.848,25.7,15.9,7.43
GGAAACCGUCACCUC,0.304,0.270,1.09,0.0161
GGAAACCGUCUUGAC,0.256,0.0661,0,0
GGAAACCGAAACACC,0.224,0.117,0.0121,0
GGAAACCGGUGUUCC,0.240,0.0558,0.00668,0
GGAAACCGACAGGAC,0.0960,0.331,0.0991,0.0509
GGAAACCGGUUCCAC,0.240,0.0969,0.0128,0.00537
GGAAACCGUUGGCUC,0.144,0.0787,0.0128,0
GGAAACCGGUACCGC,0.224,0.129,0.00668,0.00537
GGAAACCGCCUGAUC,0.224,0.287,0.0228,0.00537
GGAAACCGUGUUUCC,0.192,0.121,0.0275,0
GGAAACCGUCCUUCC,0.224,0.144,0.0108,0
GGAAACCGAUCCUUC,0.304,0.554,0.0846,0.0796
GGAAACCGUUCUCCC,0.160,0.0911,0.00668,0
GGAAACCGUAAAAUC,0.240,0.0749,0.0134,0.00537
GGAAACCGUAUCCAC,0.128,0.114,0,0.00537
GGAAACCGUUCCCAC,0.160,0.388,0.155,0.00537
GGAAACCGUAGAGAC,0.224,0.0848,0.00539,0.00537
GGAAACCGACAAGUC,0.192,0.0876,0,0
GGAAACCGCACUCCC,0.176,0.111,0.00742,0
GGAAACCGCAUAGCC,0.256,0.114,0.0134,0
GGAAACCGAAAUCAC,0.272,0.330,0.102,0.0695

The opening 4 entries, copied out:

- GGAAACCGCCCCUUC (pool 0.176) = inoculated region 0.315; leaf margin 0.140; systemic leaves 0.00537
- GGAAACCGCUUCUCC (pool 0.144) = inoculated region 0.118; leaf margin 0.0121; systemic leaves 0
- GGAAACCGGAUCCCC (pool 0.240) = inoculated region 0.0940; leaf margin 0; systemic leaves 0
- GGAAACCGUCCGUCC (pool 0.192) = inoculated region 0.361; leaf margin 0.0948; systemic leaves 0.0594